Pooled drug test results. Numbers come from NIAID ChemDB, via PubChem.

Lines come from different laboratories, so protocols vary. Blank or dashed fields: not listed here. Percent inhibition refers to the dose given; in toxicity tests it is the harm to the cells. ICn is the concentration giving n% inhibition. ECn is the concentration giving n% inhibition of infection, replication or growth. Fold resistance: result on the changed form divided by that on wild type. MIC50, MIC90 and the like: level of inhibition, or share of isolates inhibited.

CC[C@H]1OC(=O)[C@H](C)[C@@H](O[C@H]2C[C@@](C)(OC)[C@@H](O)[C@H](C)O2)[C@H](C)[C@@H](O[C@@H]2O[C@H](C)C[C@H](N(C)C)[C@H]2O)[C@](C)(OC)C[C@@H](C)C(=O)[C@H](C)[C@@H](O)[C@]1(C)O ; agent: Mycobacterium massiliense ; strain: X71 ; measure: MIC ; test: culture ; read by: broth dilution ; value: 0.25 µg/mL
CC(C)=CCOc1cc(NC(=S)c2ccoc2C)ccc1Cl ; mutations: RT-N137S ; agent: HIV ; target: Reverse transcriptase ; measure: fold resistance ; test: target ; read by: nucleotide incorporation / radiometric ; value: 0.45
CCOC(=O)Nc1cc(NC(C)/C(=N/O)c2ccc(O)cc2)c([N+](=O)[O-])c(N)n1 ; agent: Encephalitozoon intestinalis ; cells: RK-13 ; tested at: 0.1 µg/mL ; measure: inhibition ; test: culture ; value: 0%
O=C(/C=C/c1ccccc1Cl)Nc1nnc(NC2CCC2)s1 ; agent: Human cytomegalovirus ; target: Polymerase ; measure: IC50 ; test: target ; value: >25 µM
C=CCc1ccc(O)c(-c2ccc(O)c(CC=C)c2)c1 ; agent: Candida albicans ; strain: YL 339 ; measure: MIC ; test: culture ; read by: broth dilution ; value: 64 µg/mL
CO[C@@H]1[C@H](OC(=O)NC(=O)CCl)CC[C@]2(CO2)[C@H]1[C@@]1(C)O[C@@H]1CC=C(C)C ; agent: Encephalitozoon intestinalis ; cells: RK-13 ; tested at: 0.01 µg/mL ; measure: inhibition ; test: culture ; value: 81.5%
CC(C)c1cc(C(C)C)c(C(=O)Nc2nnc(NCc3ccc(S(N)(=O)=O)cc3)s2)c(C(C)C)c1 ; agent: Human cytomegalovirus ; target: Polymerase ; measure: IC50 ; test: target ; value: <25 µM
COc1cc(C[C@H](C)[C@H](C)Cc2ccc(O)c(O)c2)ccc1O ; agent: Candida albicans ; strain: CCC 127-2000 ; measure: MIC80 ; test: culture ; read by: broth dilution ; value: 31.25 µg/mL
O=C(NC(=O)c1c(F)cccc1F)Nc1cc(Cl)c(OC(F)(F)C(F)C(F)(F)F)cc1Cl ; agent: Vittaforma corneae ; cells: RK-13 ; tested at: 10 µg/mL ; measure: inhibition ; test: culture ; value: 62.5%
Cc1cn([C@@H]2O[C@H](CO[Si](C)(C)C(C)(C)C)[C@@]3(OS(=O)(=O)C=C3N)[C@H]2O[Si](C)(C)C(C)(C)C)c(=O)[nH]c1=O ; mutations: RT-N137H ; agent: HIV ; target: Reverse transcriptase ; measure: IC50 ; test: target ; read by: nucleotide incorporation / radiometric ; value: 1.1 µM
O=C(Nc1nnc(NCc2cccc3ccccc23)s1)c1cccc([N+](=O)[O-])c1 ; agent: Human cytomegalovirus ; target: Polymerase ; measure: IC50 ; test: target ; value: >25 µM
Cc1c(CSc2cccc3ccccc23)cnc2nc(N)nc(N)c12 ; agent: Encephalitozoon intestinalis ; cells: RK-13 ; tested at: 1 µg/mL ; measure: inhibition ; test: culture ; value: 77.5%
O=C1Nc2ccc(Cl)cc2[C@@](C#CC2CC2)(C(F)(F)F)O1 ; agent: Human ; target: DNA polymerase alpha ; measure: IC50 ; test: host protein ; value: 108.6 µM
CN(C)[C@@H]1C(=O)C(C(N)=O)=C(O)[C@@]2(O)C(=O)C3=C(O)c4c(O)c(NC(=O)CNC(F)(F)F)cc(F)c4C[C@H]3C[C@@H]12 ; agent: Pseudomonas aeruginosa ; strain: 111-27853 ; measure: EC50 ; test: culture ; read by: agar diffusion ; value: >32 µg/mL
CC(=O)Oc1ccccc1C(=O)Nc1ncc([N+](=O)[O-])s1 ; agent: Vittaforma corneae ; cells: RK-13 ; tested at: 0.1 µg/mL ; measure: inhibition ; test: culture ; value: 38.6%
CN(C)c1cc(NC(=O)CNC(C)(C)C)c(O)c2c1C[C@H]1C[C@H]3[C@H](N(C)C)C(=O)C(C(N)=O)=C(O)[C@@]3(O)C(=O)C1=C2O ; agent: Mycobacterium massiliense ; strain: X38 ; measure: MIC ; test: culture ; read by: broth dilution ; value: 1 µg/mL
O=C(c1ccccc1Cl)N1C[C@H](CN2CCC(O)(CCCc3ccc(-c4nn[nH]n4)cc3)CC2)[C@@H](c2ccccc2)C1 ; mutations: CCR5-Y251A ; target: CCR5 ; measure: fold resistance ; test: target ; read by: radiometric ; value: 5
CC(C)=CCN1Cc2cc(Cl)cc3[nH]c(=S)n(c23)C[C@@H]1C ; mutations: RT-L74V K103N ; agent: HIV-1 ; cells: MT-4 ; measure: EC50 ; test: culture ; value: <3 µM
CC(=O)NCCNc1nnc(NC(=O)c2cc3ccccc3s2)s1 ; agent: Human cytomegalovirus ; target: Polymerase ; measure: IC50 ; test: target ; value: >25 µM
CC[C@H]1C[C@]1(NC(=O)[C@@H]1C[C@@H]2CN1C(=O)[C@H](C(C)(C)C)NC(=O)OCC(C)(C)CCCCc1cccc3c1CN(C3)C(=O)O2)C(=O)NS(=O)(=O)C1CC1 ; target: Cathepsin S ; measure: IC90 ; test: host protein ; read by: substrate cleavage ; value: >100 µM
C=CCN(C(=O)OCc1ccc([N+](=O)[O-])cc1)C1CCN(CC[C@](C)(CN(C)S(=O)(=O)c2ccccc2)c2ccccc2)CC1 ; mutations: CCR5-Y108A ; target: CCR5 ; measure: fold resistance ; test: target ; read by: radiometric ; value: 135.3
O=C(Nc1nnc(NCc2ccncc2)s1)c1c(Cl)cccc1Cl ; agent: Human cytomegalovirus ; target: Polymerase ; measure: IC50 ; test: target ; value: <25 µM
CC[C@H]1C(=O)Nc2ccc(F)cc2N1C(=O)OC(C)C ; mutations: RT-N137T ; agent: HIV ; target: Reverse transcriptase ; measure: fold resistance ; test: target ; read by: nucleotide incorporation / radiometric ; value: 2.7
O=C(Nc1ncc([N+](=O)[O-])s1)c1ccccc1O ; agent: Vittaforma corneae ; cells: RK-13 ; tested at: 0.1 µg/mL ; measure: inhibition ; test: culture ; value: 63.6%
CN(CC(C)(CCN1CCC(N(CCO)C(=O)OCc2ccc([N+](=O)[O-])cc2)CC1)c1ccsc1)S(=O)(=O)c1ccccc1 ; mutations: CCR5-Y37A ; target: CCR5 ; measure: fold resistance ; test: target ; read by: radiometric ; value: 1.65
Cc1c(CNc2cccc3c2CCCC3)cnc2nc(N)nc(N)c12 ; agent: Encephalitozoon intestinalis ; cells: RK-13 ; tested at: 1 µg/mL ; measure: inhibition ; test: culture ; value: 74.6%
CCCCCCCC/C=C/CCCCCCCC(=O)Nc1nnc(NC2CCC2)s1 ; agent: Human cytomegalovirus ; target: Polymerase ; measure: IC50 ; test: target ; value: >25 µM
CCO/N=C/c1ccc(OCCC2CCN(c3ccc(C)nn3)CC2)cc1 ; agent: Rhinovirus ; cells: KB ; strain: 1-CV15 (ICAM-1 receptor group 11) ; measure: EC50 ; test: culture ; read by: neutral red ; value: 0.003 µM
CCOc1ccc(OCC)c(NCc2cnc3nc(N)nc(N)c3c2C)c1 ; agent: Encephalitozoon intestinalis ; cells: RK-13 ; tested at: 0.01 µg/mL ; measure: inhibition ; test: culture ; value: 0%
C#CC[C@@H](C(=O)N[C@H](/C=C/C(=O)OCC)C[C@@H]1CCNC1=O)n1cccc(NC(=O)c2cc(C)on2)c1=O ; agent: Rhinovirus ; cells: H1-HELA ; strain: Serotype Hanks ; measure: EC50 ; test: culture ; read by: cytopathic effect / XTT ; value: 0.013 µM

Again, the opening 4 rows:

| smiles | mutations | agent | target | cells | tested at | strain | measure | test | read by | value |
|---|---|---|---|---|---|---|---|---|---|---|
| CC[C@H]1OC(=O)[C@H](C)[C@@H](O[C@H]2C[C@@](C)(OC)[C@@H](O)[C@H](C)O2)[C@H](C)[C@@H](O[C@@H]2O[C@H](C)C[C@H](N(C)C)[C@H]2O)[C@](C)(OC)C[C@@H](C)C(=O)[C@H](C)[C@@H](O)[C@]1(C)O | - | Mycobacterium massiliense | - | - | - | X71 | MIC | culture | broth dilution | 0.25 µg/mL |
| CC(C)=CCOc1cc(NC(=S)c2ccoc2C)ccc1Cl | RT-N137S | HIV | Reverse transcriptase | - | - | - | fold resistance | target | nucleotide incorporation / radiometric | 0.45 |
| CCOC(=O)Nc1cc(NC(C)/C(=N/O)c2ccc(O)cc2)c([N+](=O)[O-])c(N)n1 | - | Encephalitozoon intestinalis | - | RK-13 | 0.1 µg/mL | - | inhibition | culture | - | 0% |
| O=C(/C=C/c1ccccc1Cl)Nc1nnc(NC2CCC2)s1 | - | Human cytomegalovirus | Polymerase | - | - | - | IC50 | target | - | >25 µM |